Amino acid sequences for entries named in this document (tags omitted).
UniProt P69996, whole entry: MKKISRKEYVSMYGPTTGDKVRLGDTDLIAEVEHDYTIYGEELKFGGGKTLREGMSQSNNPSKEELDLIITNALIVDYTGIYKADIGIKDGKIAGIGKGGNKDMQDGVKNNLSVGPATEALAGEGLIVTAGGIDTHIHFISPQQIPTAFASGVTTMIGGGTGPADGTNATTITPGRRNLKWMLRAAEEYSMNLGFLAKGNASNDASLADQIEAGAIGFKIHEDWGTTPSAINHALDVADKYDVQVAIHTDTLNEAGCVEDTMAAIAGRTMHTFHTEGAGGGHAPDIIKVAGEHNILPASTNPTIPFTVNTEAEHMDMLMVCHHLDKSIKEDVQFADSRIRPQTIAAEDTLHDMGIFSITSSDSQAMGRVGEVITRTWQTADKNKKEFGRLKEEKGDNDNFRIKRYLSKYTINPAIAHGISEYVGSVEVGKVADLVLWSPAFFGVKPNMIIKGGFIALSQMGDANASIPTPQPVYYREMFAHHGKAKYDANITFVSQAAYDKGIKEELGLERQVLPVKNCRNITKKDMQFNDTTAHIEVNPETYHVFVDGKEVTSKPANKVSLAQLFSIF
UniProt P14916, whole entry partner: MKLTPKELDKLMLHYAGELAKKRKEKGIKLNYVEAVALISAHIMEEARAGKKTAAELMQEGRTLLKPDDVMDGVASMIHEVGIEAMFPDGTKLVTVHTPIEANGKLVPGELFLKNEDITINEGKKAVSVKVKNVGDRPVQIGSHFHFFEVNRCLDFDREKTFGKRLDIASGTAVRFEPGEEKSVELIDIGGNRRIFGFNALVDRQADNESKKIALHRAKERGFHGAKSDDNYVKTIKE

According to article doi:10.1101/2021.01.05.425432v2 (biorxiv, 2021):

Experiments:
H. pylori urease (HPU) = H. pylori urease (HPU) (Helicobacter pylori, UniProt P69996); experiment: tandem-well NH3 assay, Nessler's reagent, crude extract; format: biochemical; details: 25 mM urea, 100 μM NiCl2, 50 mM phosphate pH 7.4, 37 °C, 30 min preincubation
O. anthropi urease (OAU) = experiment: as above; format: biochemical, Brucella anthropi; details: 25 mM urea, 100 μM NiCl2, 50 mM phosphate pH 7.4, 37 °C, 30 min preincubation

SMILES | IC50 (H. pylori urease (HPU)) [µM] | IC50 (O. anthropi urease (OAU)) [µM]
O=c1c2ccccc2sn1-c1ccccc1 | > 10 | 4.9
O=C1c2ccccc2C(=O)N1c1ccccc1 | > 10 | > 10
